Anti-infective test results gathered from many reports (values: NIAID ChemDB through PubChem).

Shared fields: whole-cell or culture tests; species: Mycobacterium tuberculosis

Lines come from different laboratories, so protocols vary.

SMILES,conditions,cell line,dose,measure,read by,strain or isolate,result
CO[C@H]1/C=C/O[C@@]2(C)Oc3c(C)c(O)c4c(O)c(c(/C=N/N5CCN(C)CC5)c(O)c4c3C2=O)NC(=O)/C(C)=C\C=C\[C@H](C)[C@H](O)[C@@H](C)[C@@H](O)[C@@H](C)[C@H](OC(C)=O)[C@@H]1C,,,,MIC,,1 isolates (rpoB Ser531Tyr),>8 µg/mL
CC[C@H]1OC(=O)[C@H](C)[C@@H](O[C@H]2C[C@@](C)(OC)[C@@H](O)[C@H](C)O2)[C@H](C)[C@@H](O[C@@H]2O[C@H](C)C[C@H](N(C)C)[C@H]2O)[C@](C)(O)C[C@@H](C)/C(=N\OCOCCOC)[C@H](C)[C@@H](O)[C@]1(C)O,,,,MIC90,,190 isolates,4 µg/mL
FC(F)(F)C(F)(F)c1nc2c(Br)c(Br)c(Br)c(Br)c2[nH]1,,,,MIC,,My 331/88,16 µM
NC(=S)c1cc(SCc2ccc(Cl)c(Cl)c2)ccn1,,,,MIC,,CNCTC MY331/88,7.94 µM
O=C1S/C(=C2/C(=O)N(CN3CCOCC3)c3ccccc32)C(=O)N1CN1CCOCC1,,,,MIC bound,BACTEC,H37Rv,>12.5 µg/mL
CO[C@H]1/C=C/O[C@@]2(C)Oc3c(C)c(O)c4c(O)c(c(/C=N/N5CCN(C)CC5)c(O)c4c3C2=O)NC(=O)/C(C)=C\C=C\[C@H](C)[C@H](O)[C@@H](C)[C@@H](O)[C@@H](C)[C@H](OC(C)=O)[C@@H]1C,,,,MIC90,,190 isolates,0.5 µg/mL
CC(C)c1ccc(NC(=O)NNC(=O)c2ccncc2)cc1,21 d,,,MIC100,broth dilution,My 331/88,32 µM
CO[C@@H]1[C@@H](O[C@@H]2O[C@H](C)[C@@H](O[C@H]3C[C@@](C)(O)[C@@H](OC(=O)CC(C)C)[C@H](C)O3)[C@H](N(C)C)[C@H]2O)[C@@H](CC=O)C[C@@H](C)[C@@H](O)/C=C/C=C/C[C@@H](C)OC(=O)C[C@H]1OC(C)=O,,,,MIC90,,190 isolates,128 µg/mL
NC(=S)c1cc(SCc2ccc([N+](=O)[O-])cc2[N+](=O)[O-])ccn1,,,,MIC,,CNCTC MY331/88,7.94 µM
O=C(CSCC(=O)N/N=C/c1ccccc1)N/N=C/c1ccccc1,,,,MIC bound,BACTEC,H37Rv,>12.5 µg/mL
CC1CC(=O)c2c(ccc3c2C(=O)c2cccc(O)c2C3=O)C1,,,,EC50,GFP,H37Ra,40.8 µM
CC1(C)CCC[C@]2(C)[C@H]3C=C4C=C(O)C(=O)C=C4O[C@@]3(C)CC[C@@H]12,,,,MIC,,ETA-R,>12.5 µg/mL
CO[C@@]1(NC(=O)Cc2cccs2)C(=O)N2C(C(=O)O)=C(COC(N)=O)CS[C@@H]21,,,,MIC90,,190 isolates,>128 µg/mL
C/C=C(/C)C(=O)OC/C=C\C#CC#C/C=C/C(=O)OC,,,,MIC,,H37Rv,>50 µg/mL
O=C(NNC(=O)c1ccncc1)Nc1ccc(Br)c(C(F)(F)F)c1,21 d,,,MIC100,broth dilution,My 331/88,8 µM
C[C@@H]1CN(c2c(F)c(N)c3c(=O)c(C(=O)O)cn(C4CC4)c3c2F)C[C@H](C)N1,,,,MIC90,,,0.5 µg/mL
CO[C@H]1/C=C/O[C@@]2(C)Oc3c(C)c(O)c4c(O)c(c(/C=N/N5CCN(C)CC5)c(O)c4c3C2=O)NC(=O)/C(C)=C\C=C\[C@H](C)[C@H](O)[C@@H](C)[C@@H](O)[C@@H](C)[C@H](OC(C)=O)[C@@H]1C,,,,MIC,,05001 (H37RV),0.8 µg/mL
O=[N+]([O-])c1cn2c(n1)OC[C@@H](OCc1ccc(OC(F)(F)F)cc1)C2,,,,MIC,,Drug-resistant,0.06 µg/mL
CC1(C)COC(c2ccccc2Br)=N1,,,,MIC bound,BACTEC,H37Rv,>12.5 µg/mL
CO[C@H]1/C=C/O[C@@]2(C)Oc3c(C)c(O)c4c(O)c(c(/C=N/N5CCN(C)CC5)c(O)c4c3C2=O)NC(=O)/C(C)=C\C=C\[C@H](C)[C@H](O)[C@@H](C)[C@@H](O)[C@@H](C)[C@H](OC(C)=O)[C@@H]1C,,,,MIC,,13268,0.09 µg/mL
Cl.Cl.Cl.FC(F)(F)c1ccc2c(c1)N(CCCN1CCN(CCN3CCCCC3)CC1)c1ccccc1S2,,,12.5 µg/mL,inhibition,BACTEC,H37Rv,99%
CO/N=C(\C(=O)N[C@@H]1C(=O)N2C(C(=O)O)=C(COC(C)=O)CS[C@H]12)c1csc(N)n1,,,,MIC90,,190 isolates,>128 µg/mL
N#Cc1cc(SCc2ccccc2)ccn1,,,,MIC,,CNCTC MY331/88,126 µM
Clc1ccc(-c2csc(-n3cccc3)n2)cc1,,,,MIC,resazurin,H37Rv,0.4 µg/mL
FC(F)(F)C(F)(F)C(F)(F)C(F)(F)c1nc2cc(Cl)c(Cl)cc2[nH]1,,,,MIC,,My 331/88,4 µM
NC(=S)c1cc(SCc2ccccc2)ccn1,,,,MIC,,CNCTC MY331/88,15.85 µM
COC1OC2COC(C)(C)OC2C1NS(=O)(=O)Cc1ccccc1,,,,MIC bound,BACTEC,H37Rv,>12.5 µg/mL
N#Cc1cc(SCc2ccc(F)c(F)c2)ccn1,,,,MIC,,CNCTC MY331/88,126 µM
Cc1ccc(NC(=O)Cc2cccs2)cc1,,,,MIC,resazurin,ATCC 27294,100 µg/mL
CCOC(=O)c1cn(-c2ccc(N)cc2F)c2cc(N3CCNCC3)c(F)cc2c1=O,,,6.25 µg/mL,inhibition,BACTEC,H37Rv,13%
Cc1ccc(N=Nc2sc(N)nc2-c2ccc(Cl)cc2)cc1,,,6.25 µg/mL,inhibition,BACTEC,H37Rv,39%
NC(=S)c1cc(SCc2ccccc2F)ccn1,,,,MIC,,CNCTC MY331/88,3.98 µM
O=C(NN1C(=O)c2cc(Cl)c(Cl)cc2C1=O)c1ccc(-n2cccc2)cc1,,,,MIC,resazurin,H37Rv,0.8 µg/mL
O=C(O)[C@H]1/C(=C/CO)O[C@@H]2CC(=O)N21,,,,MIC90,,190 isolates,>128 µg/mL
COc1ccc(-c2csc(-n3c(C)ccc3C)n2)cc1OC,,,,MIC,resazurin,H37Rv,50 µg/mL
COc1ccc(NC(=O)NNC(=O)c2ccncc2)cc1,14 d,,,MIC100,broth dilution,My 331/88,62.5 µM
O=C(NN1C(=O)c2c(Br)c(Br)c(Br)c(Br)c2C1=O)c1ccc(-n2cccc2)cc1,,,,MIC,resazurin,H37Rv,0.8 µg/mL
FC(F)(F)C(F)(F)c1nc2c(Br)cc(Br)cc2[nH]1,,,,MIC,,My 331/88,16 µM
Clc1ccc(Nc2nnc(-c3ccncc3)o2)cc1Cl,14 d,,,MIC100,broth dilution,My 331/88,>125 µM
C[C@]12CCC(=O)C=C1CCC1[C@@H]2C(=O)C[C@@]2(C)[C@H]1CC[C@]2(O)C(=O)Cn1c(=O)[nH]cc(F)c1=O,,,,MIC bound,resazurin,H37Rv,>6.25 µg/mL
CN[C@@H]1[C@H](O[C@H]2[C@H](O[C@H]3[C@H](O)[C@@H](O)[C@H](N=C(N)N)[C@@H](O)[C@@H]3N=C(N)N)O[C@@H](C)[C@]2(O)C=O)O[C@@H](CO)[C@H](O)[C@H]1O,,,,MIC,,05001 (H37RV),25 µg/mL
N#Cc1cc(SCc2cccc(Br)c2)ccn1,,,,MIC,,CNCTC MY331/88,61.66 µM
COc1cc2cc3c4ccccc4cc[n+]3c(C)c2cc1OC,,,,MIC,BACTEC,H37Rv,12.8 µg/mL
CC1(C)S[C@@H]2[C@H](NC(=O)[C@H](N)c3ccc(O)cc3)C(=O)N2[C@H]1C(=O)O,,,,MIC90,,190 isolates,>128 µg/mL
FC(F)(F)C(F)(F)c1nc2cc(Cl)c(Cl)cc2[nH]1,,,,MIC,,My 331/88,4 µM
NNC(=O)c1ccncc1,,,,MIC,BACTEC / broth dilution / radiometric,ATCC 25177,0.1 µg/mL
O=[N+]([O-])c1ccc(Sc2nc3c(Cl)cc(Cl)cc3[nH]2)c([N+](=O)[O-])c1,,,,MIC,,My 331/88,32 µM
NNC(=O)c1ccncc1.O=C(O)c1cn(C2CC2)c2cc(N3CCNCC3)c(F)cc2c1=O,,,,MIC90,,190 isolates,0.1 µg/mL
COc1cc(-c2csc(-n3c(C)ccc3C)n2)cc(OC)c1OC,,,,MIC,resazurin,H37Rv,12.5 µg/mL
COc1ccc2c(c1OC)/C(=C/c1ccccc1)OC2C1c2c(cc3c(c2OC)OCO3)CCN1C,,,,MIC bound,BACTEC,H37Rv,>12.5 µg/mL
CO[C@H]1/C=C/O[C@@]2(C)Oc3c(C)c(O)c4c(=O)c(c5oc6cc(N7CCN(CC(C)C)CC7)cc(=O)c6nc5c4c3=C2O)NC(=O)/C(C)=C\C=C\[C@H](C)[C@H](O)[C@@H](C)[C@@H](O)[C@@H](C)[C@H](OC(C)=O)[C@@H]1C,,,,MBC,,2983 (rifampin-sensitive),0.006 µg/mL
CCC(O)C#CC#C/C=C\C(=O)OC,,,,MIC,,H37Rv,25 µg/mL
Fc1ccc(-c2csc(-n3cccc3)n2)cc1,,,,MIC,resazurin,H37Rv,0.2 µg/mL
Cc1cc(C)nc(/C(=N/NC(N)=O)C(=O)Nc2nc3ccc(C)cc3s2)c1,,,12.5 µg/mL,inhibition,BACTEC,H37Rv,6%
Cc1cc(=O)oc2cc(N)ccc12,,,,MIC,resazurin,H37Rv,1000 µg/mL
CCCCCCCCc1ccc(NC(=O)NNC(=O)c2ccncc2)cc1,14 d,,,MIC100,broth dilution,My 331/88,1 µM
CC(=O)Nc1ccc(-n2cc(C(=O)O)c(=O)c3cc(F)c(N4CCN(C)CC4)cc32)cc1,,,6.25 µg/mL,inhibition,BACTEC,H37Rv,15%
CCOC(=O)C(N)CSC(=O)NC.Cl,,,12.5 µg/mL,inhibition,BACTEC,H37Rv,69%
CCOC(=O)c1cn(-c2ccc(N)cc2)c2cc(N3CCN(C)CC3)c(F)cc2c1=O,,,6.25 µg/mL,inhibition,BACTEC,H37Rv,0%
O=c1[nH]n(CCc2ccccn2)c(=O)c(Cl)c1Cl,,,,MIC bound,BACTEC,H37Rv,>6.25 µg/mL
CCCCCCCNC(=O)NNC(=O)c1ccncc1,14 d,,,MIC100,broth dilution,My 331/88,16 µM
COC(=O)C1C(O)C(C)C(OC(C)=O)C(C)/C=C\C=C(/C)C(=O)Nc2c(C)c(OC(C)=O)c3c(c2O)C(=O)C(C)=C2OCOC(=C23)/C(C)=C/C(C)(O)C(O)C(C)C1O,,,,MIC,,PZA-R,6.3 µg/mL
CCCCCCCCO[C@H]1O[C@H](CO[C@@H]2[C@@H](OCCCCCCCC)O[C@H](CO)[C@H]2N)[C@@H](O[C@@H]2O[C@H](O)[C@@H](N)[C@@H]2O)[C@@H]1O,,,6.25 µg/mL,inhibition,,H37Rv,12%
CN(C)c1ccc(N=C2C=CC(=O)C(Cl)=C2)cc1,,,6.25 µg/mL,inhibition,resazurin,H37Rv,-5%
FC(F)(F)C(F)(F)C(F)(F)c1nc2c(Cl)cc(Cl)cc2[nH]1,,,,MIC,,My 331/88,8 µM
CC(=O)OC1CC2C(C)(CCC3C2(C)CCC2(C)C4CC(C)(C)CCC4(C)CCC32C)C1C,,,12.5 µg/mL,inhibition,BACTEC,H37Rv,0%
CCCCCCc1ccc(NC(=O)NNC(=O)c2ccncc2)cc1,14 d,,,MIC100,broth dilution,My 331/88,32 µM
CN1C(=O)C23SSC1(C)C(=O)N2c1ccccc1C3(C)C,,,12.5 µg/mL,inhibition,BACTEC,H37Rv,100%
CCn1cc(C(=O)O)c(=O)c2cc(F)c(N3CCN(CC(=O)c4ccccc4)CC3)c(F)c21,,VERO,6.25 µg/mL,inhibition,BACTEC,H37Rv,100%
O=C(Cc1nc2cc(Cl)c(Cl)cc2nc1CC(=O)c1ccncc1)c1ccncc1,,,,MIC bound,BACTEC,H37Rv,<6.25 µg/mL
CCCCc1ccc(NC(=O)NNC(=O)c2ccncc2)cc1,21 d,,,MIC100,broth dilution,My 331/88,8 µM
CN(C)CCOc1ccc2c(c1)C(=O)/C(=C/c1ncc([N+](=O)[O-])n1C)C2,,,,MIC bound,resazurin,H37Rv,>6.25 µg/mL
CC1COc2c(N3CCN(C)CC3)c(F)cc3c(=O)c(C(=O)O)cn1c23,,,,MIC50,,,0.5–1.3 µg/mL
CN(C)CCNc1ccc([N+](=O)[O-])c2sc3ccccc3c(=O)c12,,,,MIC bound,BACTEC,H37Rv,≤12.5 µg/mL
C/C=C(\C)C(=O)OC/C=C\C#CC#C/C=C\C(=O)OC,,,,MIC,,H37Rv,>100 µg/mL

A second listing of 9 rows from above:

SMILES,conditions,cell line,dose,measure,read by,strain or isolate,result
O=[N+]([O-])c1ccc(Sc2nc3c(Cl)cc(Cl)cc3[nH]2)c([N+](=O)[O-])c1,,,,MIC,,My 331/88,32 µM
NC(=S)c1cc(SCc2ccccc2F)ccn1,,,,MIC,,CNCTC MY331/88,3.98 µM
N#Cc1cc(SCc2ccc(F)c(F)c2)ccn1,,,,MIC,,CNCTC MY331/88,126 µM
CCn1cc(C(=O)O)c(=O)c2cc(F)c(N3CCN(CC(=O)c4ccccc4)CC3)c(F)c21,,VERO,6.25 µg/mL,inhibition,BACTEC,H37Rv,100%
C[C@]12CCC(=O)C=C1CCC1[C@@H]2C(=O)C[C@@]2(C)[C@H]1CC[C@]2(O)C(=O)Cn1c(=O)[nH]cc(F)c1=O,,,,MIC bound,resazurin,H37Rv,>6.25 µg/mL
Cc1cc(=O)oc2cc(N)ccc12,,,,MIC,resazurin,H37Rv,1000 µg/mL
COc1ccc2c(c1OC)/C(=C/c1ccccc1)OC2C1c2c(cc3c(c2OC)OCO3)CCN1C,,,,MIC bound,BACTEC,H37Rv,>12.5 µg/mL
CO[C@@H]1[C@@H](O[C@@H]2O[C@H](C)[C@@H](O[C@H]3C[C@@](C)(O)[C@@H](OC(=O)CC(C)C)[C@H](C)O3)[C@H](N(C)C)[C@H]2O)[C@@H](CC=O)C[C@@H](C)[C@@H](O)/C=C/C=C/C[C@@H](C)OC(=O)C[C@H]1OC(C)=O,,,,MIC90,,190 isolates,128 µg/mL
CCCCCCc1ccc(NC(=O)NNC(=O)c2ccncc2)cc1,14 d,,,MIC100,broth dilution,My 331/88,32 µM

An empty or dashed field is not shown. a–b is a range or a potency band. ECn: concentration that inhibits the pathogen or its effect by n%. Percent inhibition refers to the dose given; in toxicity tests it is the harm to the cells. MIC bound: limit read from a one-dose screen. MIC50, MIC90 and the like: level of inhibition, or share of isolates inhibited.